Experimental data taken from US7763751B2 (priority 2003, dated 2010).

Target: PrP106-126 (Homo sapiens, UniProt P04156)
Experiment: Inhibition of PrP 106-126 spontaneous aggregation (HPLC assay)
Conditions: for potency in inhibiting PrP106-126 fibrils as compared to compound (3): comparison with known compound (3); for anti-aggregating properties against PrP106-126: in words; for IC50: read-out: PrP106-126 Anti-aggregation (HPLC assay) IC50, peptide 500 μM, pH 7.4, 24 h at 37° C.

Compound | potency in inhibiting PrP106-126 fibrils as compared to compound (3) | anti-aggregating properties against PrP106-126 | IC50 [µM]
CONC(C)Cc1ccc(O)c(O)c1 (stereo not shown) [Compound 1, N-(1-methyl-2-(3,4-dihydroxy-phenyl)-ethyl)-O-methyl-hydroxylamine] | equally potent | significant anti-aggregating properties | 76
CCCN(OCC)C1CCc2c(ccc(O)c2O)C1 (stereo not shown) [Compound 2, N-(5,6-dihydroxy-1,2,3,4-tetrahydro-naphthalene-2-yl)-N-propyl-O-ethyl-hydroxylamine] | significantly more potent | significant anti-aggregating properties | 20
trans-N-(5,8-hydroxy-3-methyl-1,2,3,4-tetrahydro-naphtalene-2yl)-N,N-dipropyl-amine |  |  | 75
